Source: the supplement of paper PMC9931576
Human monoclonal antibodies against the spike receptor-binding domain (heavy:light variable regions). IC50 against pseudoviruses bearing the spike of naturally observed variants; lower = stronger; >10 µg/ml means not reached at the top dose. No active / inactive call. The stated detection limit is 0.0005 µg/ml; values near or below 0.001 µg/ml lie at the floor of the assay.

Experiments:
Assay in all cases: pseudovirus neutralization IC50; higher = weaker neutralization
[1] = target: SARS-CoV-2 Omicron BA.1 spike pseudovirus
Procedure: (§1)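 Single-round VSV luciferase pseudovirus mixed with antibody dilutions for 1 h and put on Huh-7 cells for about a day; IC50 from the dose curve.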

[2] = target: SARS-CoV-2 Omicron BA.2 spike pseudovirus
Procedure: as §1

[3] = target: SARS-CoV-2 Omicron BA.2.75 spike pseudovirus
Procedure: as §1

[4] = target: SARS-CoV-2 Omicron BA.5 spike pseudovirus
Procedure: as §1

[5] = target: SARS-CoV-2 Omicron BQ.1.1 spike pseudovirus
Procedure: as §1

[6] = target: SARS-CoV-2 Omicron XBB spike pseudovirus
Procedure: as §1

[7] = target: SARS-CoV-2 early D614G spike pseudovirus
Procedure: as §1

Binder | pseudovirus neutralization IC50 [1] [µg/mL] | pseudovirus neutralization IC50 [2] [µg/mL] | pseudovirus neutralization IC50 [3] [µg/mL] | pseudovirus neutralization IC50 [4] [µg/mL] | pseudovirus neutralization IC50 [5] [µg/mL] | pseudovirus neutralization IC50 [6] [µg/mL] | pseudovirus neutralization IC50 [7] [µg/mL]
BD55-6369 (protein) chain 1: EVQLLESGGGLVQPGGSLRLSCAASGFAFSSYAMSWVRQAPGKGLEWVSGIGGSGGLTFYADSVKGRFTISRDNSKNTLYLQMKSLRAEDTAVYYCATEARGWSDCYFDNWGQGTLVTVSS chain 2: DIQMTQSPSSLSASVGDRVTITCRASQGIRNSLAWYQQKPGKAPKLLLFAASRLESGVPSRFSGSGSGTDYTLTISYVQPEDFATYYCQQYYVTPSITFGQGTRLEIK | > 10 | > 10 | > 10 | > 10 | > 10 | > 10 | > 10
BD55-6348 (protein) chain 1: QVQLVQSGAEVKKPGASVKVSCKASGYTFTTYDIIWLRQATGQGLEWMGWLNPNSGDTGYAHKFQGRVTMTRDTSISTAYMELSSLISEDTAVYYCAREEDNMVRGLRRFDPWGQGTLVTVSS chain 2: DIQMTQSPSSLSASVGDRVTITCRASQSISINLNWYQQRPGKGPKLLIYGASSLQSGVPTRFSGSGSGTDFTLTISNLQSEDFATYYCQQSYSTSYTFGQGTKLEIK | > 10 | > 10 | > 10 | > 10 | > 10 | > 10 | > 10
BD55-6343 (protein) chain 1: EVQLVQSGAEVKKPGESLKISCKASGYRFSSHWIGWVRQMPGKGLEWMGIIYPDDSDTRYSPSFQGQVIISADKSISTAYLQWSSLKASDSATYYCARPMIRGVYYGMDVWGHGTTVTVSS chain 2: DIQMTQSPSSLSASAGDRVTITCQASQDISSYLNWYQHKPGKAPKLLIYDASTLETGVPSRFSGSGSGTVFTFTISSLQPEDIATYYCQQWYDLPLTFGGGTKVEIK | > 10 | > 10 | > 10 | > 10 | > 10 | > 10 | > 10
BD55-6341 (protein) chain 1: QVQLVESGGRVVQPGRSLRLSCAVSGITFSHYGMHWVRQAPGKGLEWVAVISYDGSDRYYGDSVKGRFSITRDDSKNTVYLQMNSLRTEDTAVYYCAKNMGPYCGGGNCYGGYLDYWGQGTLVTVSS chain 2: DIQMTQSPSSLSASVGDRVTITCQASQDIRNYLNWYQQKPGKAPKLLIYDASNLETGVPSRFSGSGSGTDFTFTISSLQPEDFATYYCHQYDSVPYTFGQGTKLEIK | > 10 | > 10 | > 10 | > 10 | > 10 | > 10 | > 10
BD55-6336 (protein) chain 1: QVQLVESGGGVVQPGKSVRLSCTSSGFTFSSYAIHWVRQAPGKGLEWVAVMSYDGSNEYVADSVKDRFTISRDNSKNTLYLQMNSLRAEDTAIYYCARDGTTWGYFFFYMDVWGKGTTVTVSS chain 2: DIVLTQSPGTLSLSPGERATLSCRARQSVSSSYLAWYQQKPGQAPRLLIYDASTRATGIPDRFSGSGSGTDFTLTISRLEPEDSAVYYCQQYAKSVKTFGQGTKVEIK | 3.52 | > 10 | > 10 | > 10 | > 10 | > 10 | > 10
BD55-6335 (protein) chain 1: EVQLLESGGGLVQPGGSLKLSCAASGFSFSNYAMTWVRQAPGKGLEWVTGISDSGGNTYYADSVKGRCTISRDNSKNMLYLQMNSLRAEDTAVYYCAKERGRGFGEPYAFDIWGQGTMVIVSS chain 2: DIVMTQSPDSLAVSLGERATINCRSSQSVLYSSINRNYLAWYQQKPGQPPKLLIYWASTRESGVPDRFSGSGSGTDFTLTISTLQAEDAAVYYCQQYYATPLTFGGGTKVAIK | > 10 | > 10 | > 10 | > 10 | > 10 | > 10 | > 10
BD55-6339 (protein) chain 1: QVQLQESGPGLVKPSQTLSLTCTVSGGSISSGSYYWSWIRQPAGKGLEWIGRIHTRGNTNSKPSLKSRVIISLDTSKNQFSLRLSSVTAADTAVYYCARDLDEARRGYSGYDLVGDAMDVWGQGTTVTVSS chain 2: QSVLTQPPSVSGAPGQRVTISCTGSSSNIGAGYDVHWYQQLPGTAPKLLIYNNNNRPSGVPDRFSGSKSGTSASLAITGLQAEDEADYYCQSFDSSLTGSRVFGGGTKLTVL | > 10 | > 10 | > 10 | > 10 | > 10 | > 10 | 1.07
BD55-6332 (protein) chain 1: QVLLVQSGAEVKKPGASVKVSCKASGYTFSNYGISWVRQAPGQGLEWMGWVSAYKDNTLHAHKFQGRVTMTTDTSTNTAYMQLKSLRSDDTAIYYCAREAGTLSVRFDPWGQGTLVTVSS chain 2: DVQMTQSPSSLSASVGDRVTITCRASQSISNYLNWYQQKPGKAPKLLIYDASSLQGGVPSRFSGSGSGTDFTLTITSLQPEDFATYFCQQSYITPPYTFGQGTKLEIK | > 10 | > 10 | > 10 | > 10 | > 10 | > 10 | 4.75
BD55-6365 (protein) chain 1: EVQLVESGGGLVQPGGSLRLSCAASGFSFSRYWMTWVRQAPGKGLEWVANIKQDGTEKYYGDSVKGRFTISRDNAKNSLSLQMNSLRADDTAVYYCAGAPVSYEILAPEWFDPWGQGTLVTVSS chain 2: SYELTQPPSVSVSPGQTARITCSGDRVPTQYTCWYQQKPGQAPVLIIYKDNKRPSGIPERFSGSTSGTRATLTISGVQAEDEADYYCQTADSVLWVFGGGTKLTVL | > 10 | > 10 | > 10 | > 10 | > 10 | > 10 | > 10
BD55-6370 (protein) chain 1: QVQLVESGGGVVQPGRSLRLSCAASGFTFSSYSMHWVRQAPGKGLDWVAVISNDGSAKFYADSVKGRFTISRDNSKNTLYLQMNSLRAEDTAVYYCVRDAPTMITVVPLFDHWGQGTLVTVSS chain 2: DIQMTQSPSSLSASVGDRVTISCRASQSISTYLNWYQQKPGKAPKLLIYSASSLQSGVPSRFSGSGSGTDFSLTISSLQPEDFATYYCQQSYSTLALTFGGGTKVEIK | > 10 | > 10 | > 10 | > 10 | > 10 | > 10 | > 10
BD55-6366 (protein) chain 1: EVQLVESGGGLVQPGGSLRLSCAASGFTFSNYWMSWVRQAPGKGLEWVANINQDGSEKYYVDSVKGRFTISRDNAKNSLFLQVYSLRVEDTAVYYCAAGESGRYYTEYFQHWGQGTLVTVSS chain 2: SSELSQPPSVSVSPGQTARITCSGDALATQHAYWYQQKPGQAPVLVIYKDSARPSGIPERFSGSSSGTRGTLTIRGVQAEDEADYYCQSADSSASSYVFGTGTKVTVL | > 10 | > 10 | > 10 | > 10 | > 10 | > 10 | > 10
BD55-6347 (protein) chain 1: DVQLAESGGGLAQPGGSLRLSCVVSGVTFSGCDMNWVRQVPGKGLEWVSHSSTGSNTYYADSVRGRFTVSRDNARKSVYLQMDSVRVDDTAVYYCASDCGEPLGLTNPYRGTLFDHWGQGMLVTVSS chain 2: QSVLTQPPSVSGAPGQRVTISCTGSSSNIGAGYAVHWYQQLPGTAPRLLIFGNNNRPSGVPDRFSGSKSGTSASLAITGLQAEDEGDYYCQSYDSSPSVLYVFGTGTKVSVL | > 10 | > 10 | > 10 | > 10 | > 10 | > 10 | 1.19
